The numbers were not newly measured in article PMC4287215 (Molecular imaging, 2009), which cites them from elsewhere.

The chains behind the UniProt entries cited, without tags or fusion partners. Residues count along the entry.
UniProt P06756, 891-1048 partner limits assumed: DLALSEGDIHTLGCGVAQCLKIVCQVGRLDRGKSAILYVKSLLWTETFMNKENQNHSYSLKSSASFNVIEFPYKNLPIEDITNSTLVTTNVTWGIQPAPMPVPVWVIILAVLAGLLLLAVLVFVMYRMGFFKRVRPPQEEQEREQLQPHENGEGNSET
UniProt P06756, 31-889 limits assumed: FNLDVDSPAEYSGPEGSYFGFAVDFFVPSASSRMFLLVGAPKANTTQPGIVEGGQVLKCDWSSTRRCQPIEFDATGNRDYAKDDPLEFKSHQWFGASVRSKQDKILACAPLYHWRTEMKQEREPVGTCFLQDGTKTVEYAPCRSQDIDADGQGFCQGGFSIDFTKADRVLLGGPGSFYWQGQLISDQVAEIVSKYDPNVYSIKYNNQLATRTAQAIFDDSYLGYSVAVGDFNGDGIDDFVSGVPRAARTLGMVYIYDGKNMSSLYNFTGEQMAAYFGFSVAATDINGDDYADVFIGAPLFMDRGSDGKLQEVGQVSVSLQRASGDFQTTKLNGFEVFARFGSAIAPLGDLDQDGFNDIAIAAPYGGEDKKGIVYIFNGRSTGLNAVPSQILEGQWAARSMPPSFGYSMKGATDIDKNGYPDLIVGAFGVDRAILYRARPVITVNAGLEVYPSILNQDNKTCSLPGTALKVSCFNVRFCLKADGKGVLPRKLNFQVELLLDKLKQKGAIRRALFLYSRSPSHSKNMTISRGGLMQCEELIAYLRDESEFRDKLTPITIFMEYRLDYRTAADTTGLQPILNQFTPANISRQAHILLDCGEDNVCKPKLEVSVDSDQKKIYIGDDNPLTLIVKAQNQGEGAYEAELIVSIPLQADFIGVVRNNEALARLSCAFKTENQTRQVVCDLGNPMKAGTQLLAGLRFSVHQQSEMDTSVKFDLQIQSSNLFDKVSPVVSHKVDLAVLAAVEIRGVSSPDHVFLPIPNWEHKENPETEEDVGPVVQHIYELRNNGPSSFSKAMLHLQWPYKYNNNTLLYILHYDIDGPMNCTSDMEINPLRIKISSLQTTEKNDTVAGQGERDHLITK
UniProt P18564, 22-788: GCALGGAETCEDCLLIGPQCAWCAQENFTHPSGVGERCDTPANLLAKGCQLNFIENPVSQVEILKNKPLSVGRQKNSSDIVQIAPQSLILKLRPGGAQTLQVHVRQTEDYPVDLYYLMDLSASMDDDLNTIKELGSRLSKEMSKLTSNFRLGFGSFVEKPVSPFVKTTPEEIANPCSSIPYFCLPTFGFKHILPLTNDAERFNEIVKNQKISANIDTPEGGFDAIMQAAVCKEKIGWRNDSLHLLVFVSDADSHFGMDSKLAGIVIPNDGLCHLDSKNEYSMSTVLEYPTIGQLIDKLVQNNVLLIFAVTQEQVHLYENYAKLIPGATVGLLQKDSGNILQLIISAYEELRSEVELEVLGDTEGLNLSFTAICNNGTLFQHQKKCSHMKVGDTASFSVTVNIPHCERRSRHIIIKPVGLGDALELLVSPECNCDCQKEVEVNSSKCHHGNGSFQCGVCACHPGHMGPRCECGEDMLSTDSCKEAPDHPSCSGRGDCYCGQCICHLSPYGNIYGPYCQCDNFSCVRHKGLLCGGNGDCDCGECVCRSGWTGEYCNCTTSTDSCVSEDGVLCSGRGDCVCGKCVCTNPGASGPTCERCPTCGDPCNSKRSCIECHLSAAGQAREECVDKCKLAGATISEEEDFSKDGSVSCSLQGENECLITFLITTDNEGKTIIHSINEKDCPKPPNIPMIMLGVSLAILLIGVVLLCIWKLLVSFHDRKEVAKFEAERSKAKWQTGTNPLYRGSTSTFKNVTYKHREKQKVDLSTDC

The target of the data set is integrin αvβ6 (Homo sapiens, UniProt P06756+P18564). The note with it: read-out: IC50 αvβ6.

Regarding A20FMDV2 [Compound 2], the IC50 was 3 ± 1 nM.

By IC50 is commonly meant the concentration that gives 50% inhibition.
